Test results reported in paper PMC11539229 (Antimicrobial Agents and Chemotherapy, 2024).

Tested on: M. tuberculosis H37Rv
Assay: High-dose aerosol mouse infection model, drug combinations
Assay type: in vivo, BALB/c mice
Conditions: experiment 1; bedaquiline alone for 8 weeks

## COc1nc2ccc(Br)cc2cc1[C@@H](c1ccccc1)[C@@](O)(CCN(C)C)c1cccc2ccccc12
  emergence of bedaquiline resistance: two of the four mice
